The values that follow come from patent EP1184030A1, “Antibacterial composition comprising trimethylnorbornanylcyclohexanol derivatives” (Givaudan SA, priority 2000, dated 2002).

This series can be described thus: Odor value (vapour pressure divided by olfactive threshold). The following applies: vapour pressure (ng/L) divided by olfactive threshold value (ng/L).
With `CC1=CCC(/C=C\C(C)C(C)O)C1(C)C` (stereo not shown) [Ebanol], the odor value worked out at 212557. Molecule `CCC(=CCC1CC=C(C)C1(C)C)CO` (stereo not shown) [Radjanol] had an odor value of 53130. Take `CC1=CCC(CCC(C)C(C)O)C1(C)C` (stereo not shown) [Sandalore]: the odor value is given as 5685.

Regarding Santalol, the odor value is 650.
